A mixed list of measured activities; the numbers were collected in NIAID ChemDB.

Shared fields: whole-cell or culture tests; organism: HIV-1; read by: syncytia; read-out: EC50

Neighbouring rows are from separate reports.

SMILES,strain,changes,cells,result
COc1ccc(NC(=S)c2ccoc2C)cc1OCC=C(Cl)Cl,Pyridone-resistant (RT Y181C),RT-Y181C,CEM,0.25 µg/mL
COc1ccccc1C(=S)Nc1ccc(Cl)c(C(=O)OC(C)C)c1,,RT-V106A,CEM,12 µM
CC1=C(C(=O)N(C)c2ccc(Cl)c(C(=O)OC(C)C)c2)SCCO1,TIBO-resistant (RT L100I),RT-L100I,CEM,>10 µg/mL
Cc1ccc(C)c(C(C)S(=O)(=O)c2c(C)ccc[n+]2[O-])c1,MN,,CEM,1.4 µg/mL
CC(C)OC(=S)Nc1ccc(Cl)c(C(=O)OCc2ccccc2)c1,,RT-Y181C,CEM,15.1 µM
CC(C)c1c(Sc2ccccc2)n(COCCO)c(=S)[nH]c1=O,IIIB,Nevirapine resistant (RT Y181C),CEM,10 µM
CC1=C(C(=O)Nc2cc(Cl)cc(C(=O)OC(C)C)c2)SCCO1,IIIB,,CEM,5 µg/mL
CC1=C(C(=S)Nc2ccc(Cl)c(C=NOC(C)(C)C)c2)CCCO1,,RT-Y181C,CEM,0.067 µM
CC(C)OC(=S)Nc1ccc(Cl)c(C(=O)O)c1,,RT-V106A,CEM,>36.53 µM
CCOCn1c(Sc2ccccc2)c(C(C)C)c(=O)[nH]c1=S,IIIB,,CEM,0.009 µM
CC(C)OC(=O)c1cc(NC(=S)SC(C)C)ccc1Cl,IIIB,,CEM,19.6 µM
COCCOC(=O)c1cc(NC(=O)C2=C(C)OCCS2)ccc1Cl,PYR-resistant (RT Y181C),RT-Y181C,CEM,>10 µg/mL
Cc1occc1C(=S)Nc1ccc(Cl)c(/C=N/OCc2ccccc2)c1,,RT-E138K,CEM,≥2.6 µM
Cc1ccccc1OC(=O)c1cc(NC(=S)OC(C)C)ccc1Cl,,RT-V106A,CEM,≥27.48 µM
C=C(Cl)COc1cc(NC(=S)c2ccoc2C)ccc1C,TIBO R82913-resistant (RT K103N),RT-K103N,CEM,0.75 µg/mL
Cc1occc1C(=S)Nc1ccc(Cl)c(C(=O)OC(C)C)c1,,RT-V106A,CEM,1.7 µM
CC1=C(C(=O)Nc2ccc(Cl)c(C(=O)OC(C)C)c2)SCCO1,IIIB,RT-Y188L,CEM,15 µM
O=S(=O)(Cc1ccccc1I)c1cccc[n+]1[O-],IIIB,RT-E138K,CEM,15 µg/mL
CC1=C(C(=O)Nc2ccc(F)c(C(=O)OC(C)C)c2)SCCO1,IIIB,,CEM,0.35 µg/mL
Cc1ccc(C)c(CS(=O)(=O)c2ccccn2)c1,HE,,CEM,14 µg/mL
COc1ccc(NC(=O)C2=C(C)OCCS2)cc1OCC=C(Cl)Cl,IIIB,,CEM,4 µg/mL
Cc1occc1C(=S)Nc1ccc(Cl)c(OCCC(C)C)c1,,RT-K103N,CEM,0.45 µM
CC(C)OC(=S)Nc1ccc(Cl)c(C(=O)OC2CC2)c1,,RT-Y181C,CEM,2.549 µM
C/C=C/CSc1cc(NC(=S)c2ccoc2C)ccc1Cl,,RT-K103N,CEM,0.24 µM
Cc1cc(C)cc(Sc2c(C(C)C)c(=O)[nH]c(=S)n2COCCO)c1,IIIB,,CEM,0.006 µM
CC(C)OC(=O)c1cc(NC(=S)c2ccccc2N)ccc1Cl,,RT-E138K,CEM,6.6 µM
CCCOC(=O)c1cc(NC(=O)C2=C(C)OCCS2)ccc1Cl,IIIB,,CEM,0.02 µg/mL
CCc1c(Sc2cc(C)cc(C)c2)n(COCCO)c(=O)[nH]c1=O,IIIB,Nevirapine resistant (RT Y181C),CEM,0.25 µM
CC(C)OC(=O)c1cc(NC(=S)OC(C)C)ccc1Cl,IIIB,RT-V179D,CEM,0.33 µM
CCOC(=O)c1cc(NC(=S)OC(C)C)ccc1C,,RT-E138K,CEM,14.2 µM
CCOCn1c(Sc2ccccc2)c(CC)c(=O)[nH]c1=S,IIIB (TIBO 82150) (RT-L100I),RT-L100I,CEM,0.06 µM
CC(C)OC(=O)c1cc(NC(=S)OCC2CC2)ccc1Cl,,RT-V106A,CEM,16.78 µM
C=C(Cl)COc1cc(NC(=S)c2ccoc2C)ccc1Cl,Pyridone-resistant (RT Y181C),RT-Y181C,CEM,1.07 µg/mL
CC(C)OC(=O)c1cc(NC(=S)c2ccsc2)ccc1Cl,,RT-E138K,CEM,14 µM
C/C(Cl)=C/COc1cc(NC(=S)c2ccoc2C)ccc1Cl,Pyridone-resistant (RT Y181C),RT-Y181C,CEM,0.043 µg/mL
Cc1sccc1C(=S)Nc1ccc(Cl)c(C(=O)OC2CCCCC2)c1,,RT-K103N,CEM,0.475 µM
Cc1sccc1C(=S)Nc1ccc(Cl)c(OCC=C(Cl)Cl)c1,Nevirapine-resistant isolate (RT V106A),RT-V106A,CEM,0.065 µg/mL
COC(=O)c1cc(NC(=S)OC(C)C)ccc1Cl,,RT-Y181C,CEM,≥34.75 µM
CCCC1=C(C(=O)Nc2ccc(Cl)c(C(=O)OCC)c2)SCCO1,TSAO-resistant (RT E138K),RT-E138K,CEM,3.7 µg/mL
CC(C)OC(=O)c1cc(NC(=S)c2cccs2)ccc1Cl,,RT-V106A,CEM,1.7 µM
CCCCCCCCCC[N+](C)(C)CCCNCc1c(O)cc2c(c1O)-c1cc(ccc1O)[C@H]1NC(=O)[C@@H]3NC(=O)C4NC(=O)[C@@H](Cc5ccc(c(Cl)c5)Oc5cc3cc(c5O)Oc3ccc(cc3Cl)[C@@H](O)[C@H](NC1=O)C(=O)N[C@@H]2C(=O)O)NC(=O)[C@H](N)c1ccc(O)c(c1)Oc1cc(O)cc4c1,,RT-K103N,CEM,6 µM
Cc1ccc(C)c(CSc2c(Cl)ccc[n+]2[O-])c1,IIIB,RT-Y188H,CEM,9.2 µg/mL
CC1=C(C(=O)Nc2ccc(Cl)c(C(=O)OC3CCCCC3C)c2)SCCO1,Nevirapine-resistant (RT V106A),RT-V106A,CEM,0.6 µg/mL
CC(C)(C)OC(=O)c1cc(NC(=S)OC(C)(C)C)ccc1Cl,,RT-E138K,CEM,1.89 µM
Cc1ccc(C)c(CS(=O)(=O)c2cccc[n+]2[O-])c1,IIIB,RT-Y188H,CEM,8.8 µg/mL
CCOC(=O)c1cc(NC(=S)OC(C)C)ccc1SC,,RT-Y181C,CEM,15.95 µM
Cn1cccc1C(=S)Nc1ccc(Cl)c(/C=N/OC(C)(C)C)c1,,RT-E138K,CEM,0.364 µM
COC(=O)Oc1ccc(NC(=O)C2=C(C)OCCS2)cc1C(=O)OC(C)C,TIBO-resistant (RT L100I),RT-L100I,CEM,>10 µg/mL
Cc1ccc(C)c(CS(=O)(=O)c2cccc[n+]2[O-])c1,IIIB,,CEM,5.3 µg/mL
C=CCOC(=S)Nc1ccc(Cl)c(C(=O)OC(C)C)c1,,RT-Y181C,CEM,17.53 µM
Cc1ccccc1C(=S)Nc1ccc(Cl)c(C(=O)OC(C)C)c1,,RT-E138K,CEM,1.9 µM
CC(C)OC(=O)Nc1ccc(Cl)c(C(=O)OC(C)C)c1,,RT-V106A,CEM,>33.36 µM
COc1ccc(NC(=S)C2=C(C)OCCS2)cc1OCC=C(Cl)Cl,Nevirapine-resistant isolate (RT V106A),RT-V106A,CEM,2 µg/mL
CCOC(=O)C(C)Oc1cc(NC(=S)OC(C)C)ccc1Cl,,RT-E138K,CEM,5.783 µM
Cc1ccc(C(C)S(=O)(=O)c2c(C)ccc[n+]2[O-])c(C)c1,IIIB,,MT-2,8.6 µg/mL
CC(C)OC(=O)c1cc(NC(=O)OCC2CC2)ccc1Cl,,RT-L100I,CEM,12.83 µM
COc1ccc(C)cc1CS(=O)(=O)c1cccc[n+]1[O-],IIIB,RT-Y181C,CEM,50 µg/mL
Cc1occc1C(=O)Nc1ccc(Cl)c(SCC=C(Cl)Cl)c1,Nevirapine-resistant isolate (RT V106A),RT-V106A,CEM,0.8 µg/mL
Cc1ccsc1C(=S)Nc1ccc(Cl)c(C(=O)OC(C)C)c1,,RT-V106A,CEM,3 µM
Cc1ccc(C)c(C(Cl)S(=O)(=O)c2cc(C)cc[n+]2[O-])c1,IIIB,,CEM,0.48 µg/mL
Cc1ccoc1C(=S)Nc1ccc(Cl)c(C(=O)OC(C)C)c1,,RT-E138K,CEM,12 µM
CC(C)OC(=S)Nc1ccc(Cl)c(C(=O)OCC2CC2)c1,IIIB,,CEM,0.122 µM
CCC(=O)Oc1ccc(NC(=O)C2=C(C)OCCS2)cc1C(=O)OC(C)C,TSAO-resistant (RT E138K),RT-E138K,CEM,>10 µg/mL
CCOCn1c(Sc2cc(C)cc(C)c2)c(CC)c(=O)[nH]c1=S,IIIB TIBO R82913-resistant (RT K103N),RT-K103N,CEM,0.11 µM
Cc1occc1C(=S)Nc1ccc(Cl)c(OCC=C(Cl)Cl)c1,HEPT-resistant (RT Y188H),RT-Y188H,CEM,2 µg/mL
CC(C)=CCOc1cc(NC(=S)c2ccoc2C)ccc1Cl,IIIB,RT-Y181C,CEM,0.033 µM
CC(C)c1c(Sc2ccccc2)n(COCc2ccccc2)c(=S)[nH]c1=O,IIIB,Nevirapine resistant (RT Y181C),CEM,0.2 µM
CC(C)OC(=O)c1cc(NC(=S)OCC2(C)COC2)ccc1Cl,,RT-V106A,CEM,>29.94 µM
CCc1c(Sc2ccccc2)n(COCc2ccccc2)c(=S)[nH]c1=O,IIIB TIBO R82913-resistant (RT K103N),RT-K103N,CEM,0.65 µM
CC1=C(C(=O)Nc2ccc(Cl)c(C(=O)OC(C)C)c2)SCCO1,IIIB,RT-V179D,CEM,0.94 µM
CSCCOC(=S)Nc1ccc(Cl)c(C(=O)OC(C)C)c1,IIIB,,CEM,1.294 µM
CC(C)c1c(Sc2ccccc2)n(COCCO)c(=O)[nH]c1=O,IIIB,RT-Y181C,CEM,5.5 µM

A second listing of 10 rows from above:

CC(C)OC(=O)c1cc(NC(=S)OC(C)C)ccc1Cl ; strain: IIIB ; changes: RT-V179D ; cells: CEM ; result: 0.33 µM
C/C=C/CSc1cc(NC(=S)c2ccoc2C)ccc1Cl ; changes: RT-K103N ; cells: CEM ; result: 0.24 µM
Cc1ccoc1C(=S)Nc1ccc(Cl)c(C(=O)OC(C)C)c1 ; changes: RT-E138K ; cells: CEM ; result: 12 µM
Cc1ccc(C(C)S(=O)(=O)c2c(C)ccc[n+]2[O-])c(C)c1 ; strain: IIIB ; cells: MT-2 ; result: 8.6 µg/mL
CCOC(=O)c1cc(NC(=S)OC(C)C)ccc1SC ; changes: RT-Y181C ; cells: CEM ; result: 15.95 µM
C=CCOC(=S)Nc1ccc(Cl)c(C(=O)OC(C)C)c1 ; changes: RT-Y181C ; cells: CEM ; result: 17.53 µM
CCCC1=C(C(=O)Nc2ccc(Cl)c(C(=O)OCC)c2)SCCO1 ; strain: TSAO-resistant (RT E138K) ; changes: RT-E138K ; cells: CEM ; result: 3.7 µg/mL
CC(C)c1c(Sc2ccccc2)n(COCCO)c(=O)[nH]c1=O ; strain: IIIB ; changes: RT-Y181C ; cells: CEM ; result: 5.5 µM
CC(C)OC(=O)c1cc(NC(=S)c2ccsc2)ccc1Cl ; changes: RT-E138K ; cells: CEM ; result: 14 µM
CC(C)OC(=O)Nc1ccc(Cl)c(C(=O)OC(C)C)c1 ; changes: RT-V106A ; cells: CEM ; result: >33.36 µM

ECn is the concentration giving n% inhibition of infection, replication or growth. Blank or dashed fields: not listed here.